In US20230002478A1 (TWIST BIOSCIENCE, published 2023):

Biological target: biotinylated D614G SARS-CoV-2 spike trimer (SARS-CoV-2)
Assay: AlphaLISA, inhibition of ACE2-muFc / biotinylated spike complex

B1: bispecific monoclonal antibody 493-004 (bispecific antibody)
chain: EVQLVESGGGLVQPGGSLRLSCAASGFTFSPSWMGWFRQAPGKEREFVATINEYGGRNYADSVKGRFTISADNSKNTAYLQMNSLKPEDTAVYYCARVDRDFDYWGQGTLVTVSSGGGGS[no letters for human IgG1 Fc with C220S (EU numbers)]GGGSGGGGSASEVQLVESGGGLVQPGGSLRLSCAASGSTFSINAMGWFRQAPGKEREFVAGITSSGGYTNYADSVKGRFTISADNSKNTAYLQMNSLKPEDTAVYYCAADGVPEYSDYASGPVWGQGTLVTVSS
IC50: 2.1 nM
